Pooled drug test results. Numbers come from NIAID ChemDB, via PubChem.

Common to all: tests in culture; species: Epstein-Barr virus; endpoint: EC50

Neighbouring rows are from separate reports. An empty or dashed field is not shown. ECn: concentration that inhibits the pathogen or its effect by n%.

smiles,strain or isolate,cells,read by,value
Nc1nc2c(ncn2[C@H]2C[C@@]23C[C@@H]3CO)c(=O)[nH]1,,DAUDI,ELISA,6 µM
Nc1nc2c(ncn2COC(CO)CO)c(=O)[nH]1,,P3HR-1,PCR,0.14 µg/mL
C/C(=N\C1O[C@H](CO)[C@@H](O)[C@H](O)C1Cl)n1nc(OS(=O)(=O)c2ccc(C)cc2)c(C(F)(F)F)n1,B95-8 lymphoblastoid,,PCR,15.6 µM
C=CCNc1ncnc2c1ncn2CCOCP(=O)(O)O,,P3HR-1,hybridisation,11 µg/mL
Nc1ccn([C@@H]2C[C@@H](O)[C@H](CO)O2)c(=O)n1,,DAUDI,,>50 µM
C[C@@H](N)C(=O)O[C@H]1C[C@H](n2cc(/C=C/Br)c(=O)[nH]c2=O)O[C@@H]1COP1(=O)OCc2ccccc2O1,,,hybridisation,8.08 µg/mL
COC(=O)[C@H](C)NP(=O)(OCC1C/C1=C\n1cnc2c(N)ncnc21)Oc1ccccc1,,H-1,hybridisation,4 µM
Cc1cn([C@H]2C/C(=N\O)[C@@H](CO)O2)c(=O)[nH]c1=O,,P3HR-1,hybridisation,1.5 µg/mL
Nc1nc2c(ncn2[C@H]2C[C@@]23C[C@H]3CO)c(=O)[nH]1,,DAUDI,ELISA,>199 µM
C[C@H](N)C(=O)O[C@H]1C[C@H](n2cc(/C=C/Br)c(=O)[nH]c2=O)O[C@@H]1COP1(=O)OCc2ccccc2O1,,,hybridisation,18.7 µg/mL
Nc1nc2c(ncn2COC(CO)CO)c(=O)[nH]1,B95-8 lymphoblastoid,,PCR,3.9 µM
Nc1ccn([C@H]2CC[C@@H](CO)O2)c(=O)n1,,P3HR-1,hybridisation,28 µg/mL
O=c1[nH]c(=O)n([C@H]2C[C@H](O)[C@@H](CO)O2)cc1/C=C/Br,,P3HR-1,PCR,22 µg/mL
NC(=O)c1ncn([C@@H]2O[C@H](CO)[C@@H](O)[C@H]2O)n1,,P3HR-1,hybridisation,>50 µg/mL
O=C1Cc2c([nH]c3ccc(Br)cc23)-c2ccccc2N1,,Akata,PCR,0.681 µM
Nc1nc(Cl)nc2c1ncn2/C=C1/CC1CO,,H-1,hybridisation,>20 µM
Cc1cn([C@@H]2C[C@@H](O)[C@H](CO)O2)c(=O)[nH]c1=O,,DAUDI,,>50 µM
O=c1[nH]c(=O)n([C@H]2C[C@H](O)[C@@H](COP3(=O)OCc4ccccc4O3)O2)cc1/C=C/Br,,,hybridisation,6.68 µg/mL
Nc1nc2c(ncn2[C@H]2C[C@]23C[C@@H]3CO)c(=O)[nH]1,,DAUDI,ELISA,>199 µM
CO[C@@H]1[C@@H](OC(N)=O)[C@@H](O)[C@H](Oc2ccc3c(O)c(NC(=O)c4ccc(O)c(CC=C(C)C)c4)c(=O)oc3c2C)OC1(C)C,,P3HR-1,PCR,70.7 µM
COC(=O)[C@H](C)NP(=O)(OC[C@H]1C/C1=C\n1cnc2c(N)nc(N)nc21)Oc1ccccc1,,H-1,hybridisation,>10 µM
Cc1ccc(S(=O)(=O)Oc2nn(C3=CCCO3)nc2C(F)(F)F)cc1,B95-8 lymphoblastoid,,PCR,10 µM
CC(C)CNc1ncnc2c1ncn2CCOCP(=O)(O)O,,P3HR-1,hybridisation,10 µg/mL
O=C1NCc2c1c1c3ccccc3[nH]c1c1[nH]c3ccccc3c21,,Akata,,1.11 µM
N#CC(=C(/N)Sc1ccccc1N)/C(C#N)=C(\N)Sc1ccccc1N,,Akata,PCR,0.552 µM
COC(=O)[C@H](C)NP(=O)(OCC1C/C1=C/n1cnc2c(N)ncnc21)Oc1ccccc1,,H-1,hybridisation,0.1 µM
CC(=O)c1c(O)c(C)c(O)c(Cc2c(O)c3c(c(C(=O)/C=C/c4ccccc4)c2O)OC(C)(C)C=C3)c1O,,Akata,PCR,0.983 µM
Nc1nc(Cl)nc2c1ncn2/C=C1\CC1CO,,H-1,hybridisation,>20 µM
CON=C1C[C@H](n2cc(C)c(=O)[nH]c2=O)O[C@@H]1CO,,P3HR-1,hybridisation,>50 µg/mL
COC(=O)[C@H](C)NP(=O)(OC[C@@H]1C[C@]12C[C@@H]2n1cnc2c(N)ncnc21)Oc1ccccc1,,DAUDI,ELISA,2.8 µM
Nc1ncnc2c1ncn2[C@H]1C[C@]12C[C@H]2CO,,DAUDI,plaque count,22 µM
Nc1nc(NC2CC2)c2ncn(C=C3CC3CO)c2n1,,DAUDI,antigen,11.8 µM

Repeating the final 3 entries:

smiles	strain or isolate	cells	read by	value
COC(=O)[C@H](C)NP(=O)(OC[C@@H]1C[C@]12C[C@@H]2n1cnc2c(N)ncnc21)Oc1ccccc1		DAUDI	ELISA	2.8 µM
Nc1ncnc2c1ncn2[C@H]1C[C@]12C[C@H]2CO		DAUDI	plaque count	22 µM
Nc1nc(NC2CC2)c2ncn(C=C3CC3CO)c2n1		DAUDI	antigen	11.8 µM